A mixed list of measured activities; the numbers were collected in NIAID ChemDB.

Shared fields: whole-cell or culture tests

ECn: concentration that inhibits the pathogen or its effect by n%. Fold resistance has wild type as its base. Neighbouring rows are from separate reports. Two numbers with a dash give a range or band. An empty or dashed field is not shown.

smiles	strain or isolate	cells	read-out	method	organism	changes	value
NC(=S)Nc1ccc2c(c1)Cc1cc(NC(=O)C3CCCCC3)ccc1-2	-	Ava5-EG(delta4AB)SEAP	EC50	reporter gene / fluorescence	Hepatitis C virus	-	0.001–1 µM
COc1ccc(-n2c(C(=O)N[C@H]3CCc4ccccc43)c3n(c2=O)CCN(C(=O)c2ccc(Br)c(Cl)c2)C3)cc1	-	HepG2.117	EC50	PCR	Hepatitis B virus	-	0.5–5 µM
CC#Cc1ccc(C(=O)N2c3cccc(O)c3NC3=C(C(=O)CC(C)(C)C3)[C@@H]2c2ccc(OCc3ccccc3)cc2F)nc1	1b	-	EC50	luciferase / reporter gene / replicon	Hepatitis C virus	-	1.07 µM
O=C(N[C@@H](C(=O)N1CCC[C@H]1c1ncc(-c2ccc(-c3ccc(-c4cnc([C@@H]5CCCN5C(=O)[C@H](NC(=O)C5CC5)c5ccccc5)s4)cc3)cc2)s1)c1ccccc1)C1CC1	genotype 1b	Huh7.5	fold resistance	luciferase / reporter gene	Hepatitis C virus	Y93N+V153M+M202L+M265V	18217
CC(C)Cc1cnn2c3c(c(=O)n(-c4ccc(-c5nncn5C)cc4)c12)C[C@@H](C)N(C(=O)c1ccc(Br)c(C(F)(F)F)c1)C3	-	HepG2.117	EC50	luminescence	Hepatitis B virus	-	≤0.05 µM
COc1ccc(-n2c(C(=O)N[C@H](C)C3CC3)c3n(c2=O)CCN(C(=O)c2ccc(Cl)c(Cl)c2)C3)cc1	-	HepG2.117	EC50	PCR	Hepatitis B virus	-	>5 µM
NC(=S)Nc1cccc(OCCCCCOc2cccnc2)c1	-	Ava5-EG(delta4AB)SEAP	EC50	reporter gene / fluorescence	Hepatitis C virus	-	0.001–1 µM
C[C@@H]1CN(c2ccc(-n3c(C(=O)NCc4ccccc4)c4n(c3=O)CCN(C(=O)c3ccc(Br)c(Cl)c3)C4)cc2)CCO1	-	HepG2.117	EC50	PCR	Hepatitis B virus	-	0.1–0.5 µM
Cc1cccc(C(=O)N2c3cccc(O)c3NC3=C(C(=O)CC(C)(C)C3)C2c2ccc(OCc3cccc(F)c3)cc2F)n1	1b	-	EC50	luciferase / reporter gene / replicon	Hepatitis C virus	-	1.12 µM
NC(=S)Nc1cccc(OCCCCCNc2ccccc2-c2ccco2)c1	-	Ava5-EG(delta4AB)SEAP	EC50	reporter gene / fluorescence	Hepatitis C virus	-	0.001–1 µM
CC1(C)CC(=O)C2=C(C1)Nc1c(O)cccc1NC2c1ccc(C(F)(F)F)cc1	1b	-	EC50	luciferase / reporter gene / replicon	Hepatitis C virus	-	36.48 µM
CO[C@H]1CN(Cc2ccccc2)C(=O)c2c3n(c(=O)n2C1)CCN(C(=O)c1ccc(Br)c(Cl)c1)C3	-	HepG2.117	EC50	PCR	Hepatitis B virus	-	0.1–0.5 µM
CCCC(=O)Nc1ccc2c(c1)Cc1cc(NC(N)=S)ccc1-2	-	Ava5-EG(delta4AB)SEAP	EC50	reporter gene / fluorescence	Hepatitis C virus	-	0.001–1 µM
COc1ccc(-n2c(C(=O)NCc3ccc(=O)[nH]c3)c3n(c2=O)CCN(C(=O)c2ccc(Br)c(Cl)c2)C3)cc1	-	HepG2.117	EC50	PCR	Hepatitis B virus	-	>5 µM
CNC(=O)c1ccc(-n2c(=O)c3c(n4ncc(Cc5ccccc5)c24)CN(C(=O)c2ccc(Br)c(C(F)(F)F)c2)[C@H](C)C3)nc1	-	HepG2.117	EC50	luminescence	Hepatitis B virus	-	0.05–0.5 µM
CC(C)C(=O)N1c2cccc(O)c2NC2=C(C(=O)CC(C)(C)C2)C1c1ccc(Oc2ccccc2Br)cc1Cl	1b	-	EC50	luciferase / reporter gene / replicon	Hepatitis C virus	-	4.06 µM
CC1CCC(C(=O)N(c2cc(C#CC(C)(C)C)sc2C(=O)O)C2CCC(O)CC2)CC1	Con1 (gt 1b)	Huh7	fold resistance	luciferase	Hepatitis C virus	R422K	545.8
CC1(C)CC(=O)C2=C(C1)Nc1c(O)cccc1NC2c1cccs1	1b	-	EC50	luciferase / reporter gene / replicon	Hepatitis C virus	-	>10 µM
CC1Cc2c(n3ncc(CC4CC4)c3n(-c3ccc(C(=O)N(C)COC(=O)CN)cc3)c2=O)CN1C(=O)c1ccc(Br)c(C(F)(F)F)c1	-	HepG2.117	EC50	luminescence	Hepatitis B virus	-	>5 µM
CC(C)Oc1ccc(-n2c(-c3ncc(Cc4ccccc4)s3)c3n(c2=O)CCN(C(=O)c2ccc(Br)c(Cl)c2)C3)cc1	-	HepG2.117	EC50	PCR	Hepatitis B virus	-	>0.5 µM
C1=C[C@@H](c2ncc(-c3ccc(-c4ccc(-c5cnc([C@@H]6C=CCN6)[nH]5)cc4)cc3)[nH]2)NC1	1a	Luc1a.1.19	EC50	luciferase	Hepatitis C virus	-	6.5 µM
COP(=O)(OC)OCN(C)C(=O)c1ccc(-n2c(=O)c3c(n4ncc(CC5CC5)c24)CN(C(=O)c2ccc(Br)c(C(F)(F)F)c2)[C@@H](C)C3)cc1	-	HepG2.117	EC50	luminescence	Hepatitis B virus	-	>5 µM
O=C(NCc1ccc(OC(F)(F)F)cc1F)c1c2n(c(=O)n1-c1ccc(OCC(F)(F)F)cc1)CCN(C(=O)c1ccc(Br)c(Cl)c1)C2	-	HepG2.117	EC50	PCR	Hepatitis B virus	-	0.5–5 µM
CC(C)C(=O)N1c2cccc(O)c2NC2=C(C(=O)CC(C)(C)C2)C1c1ccc(OCc2cccc(F)c2)cc1F	1b	-	EC50	luciferase / reporter gene / replicon	Hepatitis C virus	-	1.53 µM
COc1ccc(-n2c(C(=O)NCc3cccc(OC)c3C)c3n(c2=O)CCN(C(=O)c2ccc(Br)c(Cl)c2)C3)cc1	-	HepG2.117	EC50	PCR	Hepatitis B virus	-	0.1–0.5 µM
C[C@@H]1Cc2c(n3ncc(Cc4ccccc4)c3n(-c3ccc(-c4nn(C)c(=O)[nH]4)cc3)c2=O)CN1C(=O)c1ccc(Br)c(C(F)(F)F)c1	-	HepG2.117	EC50	luminescence	Hepatitis B virus	-	≤0.05 µM
CC1(C)CC(=O)C2=C(C1)Nc1c(O)cccc1NC2c1ccc(C(F)(F)F)cc1F	1b	-	EC50	luciferase / reporter gene / replicon	Hepatitis C virus	-	85.06 µM
CNC(=O)c1ccc(-n2c(=O)c3c(n4ncc(CC5CC5)c24)CN(C(=O)c2ccc(Br)c(C(F)(F)F)c2)CC3)cc1	-	HepG2.117	EC50	luminescence	Hepatitis B virus	-	≤0.05 µM
CC1(C)CC(=O)C2=C(C1)Nc1c(O)cccc1NC2c1cccc2ccccc12	1b	-	EC50	luciferase / reporter gene / replicon	Hepatitis C virus	-	>32 µM